Experimental data from ChEMBL document CHEMBL4831515 (J Med Chem, 2021).

Experiment: in vitro
Details: human, microsomes

half-life at 2 h: 2.4 min
Structure (SMILES): Cc1cc(C#N)cc(C)c1Oc1nc(NC2CCN(Cc3ccc(S(N)(=O)=O)cc3)CC2)nc2ccsc12
